Reference: US6774235B2, “Trisubstituted 1,3,5-triazine derivatives” (Janssen Pharmaceutica N.V., priority 1998, dated 2004)

System: HIV-1 (wildtype IIIB)
Assay type: cell-based
Settings: selectivity index, ratio of CC50 to IC50
Procedure: A rapid, sensitive and automated assay procedure was used for the in vitro evaluation of anti-HIV agents. An HIV-1 (wildtype IIIB) transformed T4-cell line, MT-4, which was previously shown (Koyanagi et al., Int. J Cancer, 36, 445-451, 1985) to be highly susceptible to and permissive for HIV infection, served as the target cell line. Inhibition of the HIV-induced cytopathic effect was used as the end point. […] The percent protection achieved by the compound in HIV-infected cells was calculated by the following formula: [formula]
whereby (ODT)HIV is the optical density measured with a given concentration of the test compound in HIV-infected cells; (ODC)HIV is the optical density measured for the control untreated HIV-infected cells; (ODC)MOCK is the optical density measured for the control untreated mock-infected cells; all optical density values were determined at 540 nm. […] The ratio of CC50 to IC50 was defined as the selectivity index (SI).

| Compound | SI |
| --- | --- |
| N#Cc1ccc(Nc2nc(N)nc(Oc3c(Cl)ccc(Cl)c3Cl)n2)cc1 [Compound 43] | 4668 |
| Cc1cc(Nc2nc(N)nc(Nc3ccc(C#N)cc3)n2)c(Cl)cc1F [Compound 66] | >1037 |
| N#Cc1ccc(Nc2nc(N)nc(Sc3ccc(F)cc3F)n2)cc1 [Compound 57] | >6711 |
| N#Cc1ccc(Nc2nc(NO)nc(Sc3c(Cl)cccc3Cl)n2)cc1 [Compound 20] | 3726 |
| N#Cc1ccc(Nc2nc(N)nc(Oc3c(Cl)cccc3Cl)n2)cc1 [Compound 1] | >6451 |
| CCc1cc(Br)cc(CC)c1Nc1nc(N)nc(Nc2ccc(C#N)cc2)n1 [Compound 64] | 3393 |
| Cc1cccc(C)c1Nc1nc(NO)nc(Nc2ccc(C#N)cc2)n1.Cl [Compound 5] | 3458 |
| Cc1cc(C)c(Nc2nc(N)nc(Nc3ccc(C#N)cc3)n2)c(C)c1Br [Compound 15] | 498 |
| Cc1cc(C)c(Nc2nc(N)nc(Nc3ccc(C#N)cc3)n2)c(C)c1N [Compound 61] | 20549 |
| N#Cc1ccc(Nc2nc(N)nc(Nc3c(F)cc(F)cc3Br)n2)cc1 [Compound 17] | 16311 |
| CCc1cccc(CC)c1Nc1nc(N)nc(Nc2ccc(C#N)cc2)n1 [Compound 12] | 1449 |
| N#Cc1ccc(Nc2nc(N)nc(NNc3c(Cl)cccc3Cl)n2)cc1 [Compound 22] | >33333 |
| COC(=O)c1cc(OC)c(OC)c(OC)c1Nc1nc(N)nc(Nc2ccc(C#N)cc2)n1 [Compound 82] | 67 |
| N#Cc1ccc(Nc2nc(N)nc(Oc3c(Cl)cc(Cl)cc3Cl)n2)cc1 [Compound 30] | 26488 |
| Cc1cc(Br)cc(Cl)c1Nc1nc(N)nc(Nc2ccc(C#N)cc2)n1 [Compound 63, 4-[[4-amino-6-[(4-bromo-2-chloro-6-methylphenyl)amino]-1,3,5-triazin-2-yl]amino]-benzonitrile] | 16561 |
| N#Cc1ccc(Nc2nc(N)nc(Nc3c(Cl)cc(Cl)cc3C(F)(F)F)n2)cc1 [Compound 71, 4-[[4-amino-6-[[2,4-dichloro-6-(trifluoromethyl)phenyl]amino]-1,3,5-triazin-2-yl]-amino]benzonitrile] | 860 |
| Cc1c(Cl)c(C)c(Br)c(Oc2nc(N)nc(Nc3ccc(C#N)cc3)n2)c1Br [Compound 48] | 456 |
| N#Cc1ccc(Nc2nc(N)nc(Oc3c(Br)cc(Br)cc3Br)n2)cc1 [Compound 40, 4-[[4-amino-6-(2,4,6-tribromophenoxy)-1,3,5-triazin-2-yl]amino]benzonitrile] | >1851 |
| COc1cc(C#N)ccc1Oc1nc(N)nc(Nc2ccc(C#N)cc2)n1 [Compound 47] | >1340 |
| N#Cc1ccc(Nc2nc(N)nc(Oc3c(F)c(F)c(O)c(F)c3F)n2)cc1 [Compound 80] | >1 |
| Cc1c(Cl)cc(N)c(Oc2nc(N)nc(Nc3ccc(C#N)cc3)n2)c1Cl [Compound 81] | >37 |
| N#Cc1ccc(Nc2nc(N)nc(Nc3c(Cl)cccc3Cl)n2)cc1 [Compound 10] | 2022 |
| N#Cc1ccc(Nc2nc(N)nc(Sc3ccc(Cl)cc3Cl)n2)cc1 [Compound 54, 4-[[4-amino-6-[(2,4-dichlorophenyl)thio]-1,3,5-triazin-2-yl]amino]benzonitrile] | 13349 |
| Cc1cc(C)c(Sc2nc(N)nc(Nc3ccc(C#N)cc3)n2)c(C)c1 [Compound 58] | 16244 |

| Compound | SI |
| --- | --- |
| N#Cc1ccc(Nc2nc(NO)nc(Nc3c(Cl)cc(Cl)cc3Cl)n2)cc1 [Compound 23, 4-[[4-(hydroxyamino)-6-[(2,4,6-trichlorophenyl)amino]-1,3,5-triazin-2-yl]amino]-benzonitrile] | 7614 |
| Cc1c(Br)c(C)c(Br)c(Oc2nc(N)nc(Nc3ccc(C#N)cc3)n2)c1Br [Compound 50] | 139 |
| Cc1cc(C)c(Nc2nc(NO)nc(Nc3ccc(C#N)cc3)n2)c(C)c1 [Compound 11, 4-[[4-(hydroxyamino)-6-[(2,4,6-trimethylphenyl)amino]-1,3,5-triazin-2-yl]amino]-benzonitrile] | 4480 |
| CC(C)c1cc(Br)c(Nc2nc(Nc3ccc(C#N)cc3)nc(Nc3ccc(C#N)cc3)n2)c(Br)c1 [Compound 75] | 100 |
| CC(=O)c1cc(C)c2c(c1Oc1nc(N)nc(Nc3ccc(C#N)cc3)n1)CCC2 [Compound 84, 4-[[4-[(5-acetyl-2,3-dihydro-7-methyl-1H-inden-4-yl)oxy]-6-amino-1,3,5-triazin-2-yl]amino]benzonitrile] | 45129 |
| Cc1ccc(C)c(Oc2nc(N)nc(Nc3ccc(C#N)cc3)n2)c1 [Compound 2, 4-[[4-amino-6-(2,5-dimethylphenoxy)-1,3,5-triazin-2-yl]amino]benzonitrile] | 10750 |
| Cc1c(C)c(Oc2nc(N)nc(Nc3ccc(C#N)cc3)n2)c(Cl)c(C)c1Cl [Compound 53] | 142 |
| Cc1cccc(C(C)C)c1Nc1nc(N)nc(Nc2ccc(C#N)cc2)n1 [Compound 8] | 56 |
| Cc1ccc(Sc2nc(N)nc(Nc3ccc(C#N)cc3)n2)c(C)c1 [Compound 59] | 26975 |
| Cc1ccc(Oc2nc(N)nc(Nc3ccc(C#N)cc3)n2)c(C)c1 [Compound 62] | 19110 |
| Cc1cc(C)c(Nc2nc(N)nc(Nc3ccc(C#N)cc3)n2)c(Cl)c1 [Compound 65, 4-[[4-amino-6-[(2-chloro-4,6-dimethylphenyl)amino]-1,3,5-triazin-2-yl]amino]-benzonitrile] | 80824 |
| N#Cc1ccc(Nc2nc(N)nc(Nc3c(Cl)cc(C(F)(F)F)cc3Cl)n2)cc1 [Compound 70] | 4471 |
| N#Cc1ccc(Nc2nc(N)nc(Nc3c(F)c(F)c(F)c(F)c3F)n2)cc1 [Compound 67] | 412 |
| N#Cc1ccc(Nc2nc(N)nc(Sc3cc(Cl)c(Cl)cc3Cl)n2)cc1 [Compound 56] | 13059 |
| CCc1cccc(C)c1Nc1nc(N)nc(Nc2ccc(C#N)cc2)n1 [Compound 16, 4-[[4-amino-6-[(2-ethyl-6-methylphenyl)amino]-1,3,5-triazin-2-yl]amino]benzonitrile] | 1372 |
| Cc1cc(Br)c(Nc2nc(Nc3ccc(C#N)cc3)nc(Nc3ccc(C#N)cc3)n2)c(Br)c1 [Compound 74, N,-[6-[(2,6-dibromo-4-methylphenyl)amino]-1,3,5-triazine-2,4-diyl]bis[4-amino-benzonitrile]] | 37 |
| Cc1cc(N)cc(C)c1Oc1nc(N)nc(Nc2ccc(C#N)cc2)n1 [Compound 78] | 6 |
| CC(=O)c1cc(C)c(Oc2nc(N)nc(Nc3ccc(C#N)cc3)n2)c(C)c1 [Compound 35, 4-[[4-(4-acetyl-2,6-dimethylphenoxy)-6-amino-1,3,5-triazin-2-yl]amino]benzonitrile] | 24712 |
| Cc1cc(Br)cc(Cl)c1Oc1nc(N)nc(Nc2ccc(C#N)cc2)n1 [Compound 33, 4-[[4-amino-6-(4-bromo-2-chloro-6-methylphenoxy)-1,3,5-triazin-2-yl]amino]benzonitrile] | >4761 |
| Cc1cc(C)c(N=Nc2nc(N)nc(Nc3ccc(C#N)cc3)n2)c(C)c1 [Compound 69, 4-[[4-amino-6-[(2,4,6-trimethylphenyl)azo]-1,3,5-triazin-2-yl]aamino]benzonitrile] | >1547 |
| N#Cc1ccc(Nc2nc(N)nc(Nc3c(Cl)cc(Cl)cc3Cl)n2)cc1 [Compound 18] | 6033 |
| CC(=O)c1ccc(C)cc1Nc1nc(N)nc(Nc2ccc(C#N)cc2)n1 [Compound 13] | >386 |
| N#Cc1ccc(Nc2nc(N)nc(Sc3ccc(F)cc3Cl)n2)cc1 [Compound 55] | >27777 |
